# Measured values published in patent publication US9642858B2, “Use of resazurin, or analogs thereof, for antibacterial therapy” (priority 2012, dated 2017).
# Tested on: F. tularensis LVS
# Set-up: species or system Francisella tularensis
compound,measurement,value
"O=c1ccc2[n+]([O-])c3ccc(O)cc3oc-2c1 [resazurin, 7-Hydroxy-3H-phenoxazin-3-one 10-oxide]",increase of the ratio of resorufin to resazurin,3 fold
same,maximum ratio of resorufin to resazurin,5
